Source: patent publication US20260069689A1, “ANTI-SARS-COV-2-SPIKE GLYCOPROTEIN ANTIBODIES AND ANTIGEN-BINDING FRAGMENTS” (Regeneron, published 2026)

B1: mAb15150 (antibody, V domains shown)
VH: EVQLVETGGGLIQPGGSLRLSCAAPGFIVSSNYMSWVRQAPGKGLEWVSLLYPGGSTYYADSVKGRFTISRDNSKNTLYLQMNSLRADDTAVYYCARVLPIVEDHFDYWGQGTLVTVSS
VL: DIQLTQSPSFLSASVGDRVTITCRASQGMSSYLAWYQKKPGKAPKLLIYGATILQSGVPSRFSGSGSGTEFTLTISSLQPEDFATYYCQQLNSDPLYMYTFGQGTKLEIKR
B2: mAb14230 (antibody, V domains shown)
VH: EVQLVESGGGLIQPGRSLRLSCAASGFTFDDYAMHWVRQAPGKGLEWVSGISWNSVSIDYADSVKGRFTISRDNAKNSLYLQMTSLTVEDTALYYCAKAFGYETLTGSDYFAYWGPGTLVTVSS
VL: EIVLTQSPGTLSLSPGERATLSCRASQTVISTYLAWYQQKPGQSPRLLIYGASSRATGIPDRFSGSGSGTDFTLTISRLEPEDFAVYYCQQYGSSPQLTFGGGTKVEIKR
B3: mAb14231 (antibody, V domains shown)
VH: EVQLVESGGGLVQPGGSLRLSCAASGFTFSSYWMSWVRQAPGKGLEWVANIKQDGSEKYYVDSVKGRFTISRDNAKNSLYLQMNSLRAEDTAVYYCARAPGNFDWLFRSDYYYGMDVWGQGTTVTVSS
VL: not shown
B4: mAb14232 (antibody, V domains shown)
VH: QITLKESGPTLVKPTQTLTLTCTFSGFSLSASGVGVGWIRQPPGKALEWLALIYWDDDKRYSPSLKSRLTITKDTSKNQVVLTMTNMDPVDTATYYCAQHKVATIFDYWGQGTLVTVSS
VL: QSALTQPPSASGSPGQSVTISCTATSSDVGNYNYVSWYQQHPGKAPKLMIYEVTKRPSGVPDRFSGSKSGNTASLTVSGLQAEDEADYYCSSYAGSWGVFGGGTKLTVLG
B5: mAb14233 (antibody, V domains shown)
VH: QVQLVESGGGVVQPGRSLRLSCAASGFIFSSYGMHWVRQAPGKGLEWVAVIWYDGSNKFYADSVKGRFTISRDNSKNTLYLQVNSLRAEDTAVYYCARAVQGDWYFDHWGQGTLVTVSS
VL: SYELTQPPSVSVSPGQTARITCSGDVLAKLYAYWYQHKPGQAPVLVIYKDSERPSGIPERFSGSSSGTTVTLTISGVQAEDEADYYCQSADSSGSLWVFGGGTKLTVLG
B6: mAb14235 (antibody, V domains shown)
VH: QITLKESGPTLVKPTQTLTLTCTFSGFSLNTGGVGVGWIRQPPGNALEWLALIYWDDDKRYNPSLKTRLTISKDTSKNQVVLTMTNMDPVDTATYFCAHLTIAVIVDFWGQGTLVTVSS
VL: QSALTQPASVSGSPGQSITISCTATSSDVGTYNYVSWFQHHPGKAPKLMIYEVTNRPSGVSNRFSGSKSGNTASLTISGLQAEDEADYYCSSYTTTSIVFGGGTKLTVLG
B7: mAb14247 (antibody, V domains shown)
VH: QITLKESGPTLVKPTQTLTLTCTFSGFSLSTSAVGVGWIRQPPGKALEWLALIYWDDDKRYSPSLKSRLTITKDTSKNQLVLTMTNVDPVDTATYYCAHHTIQLIFDYWGQGTLVTVSS
VL: QSALTQPASVSGSPGQSITISCTATSSDVGNYNYVSWYQQHPGKAPKLMIYEVSNRPSGVSNRFSGSKSGNTASLTISGLQAEDEADYYCSSYTSSSTPLVFGGGTKLTVLG
B8: mAb14248 (antibody, V domains shown)
VH: QVQLVQSGAEVKKPGASVKVSCKVSGYTLTELSIHWVRQAPGKGLEWMGGFNPEDAETIYAQKFQGRVTMTEDTSTDTAYMELRALRFEDTAVYYCATAFAVVSVGTGLNYNYYYGMDVWGQGTTVTVSS
VL: not shown
B9: mAb14249 (antibody, V domains shown)
VH: QVQLVQSGAEVKKPGASVKVSCKASGYTFTGYYMHWVRQAPGQGLEWMGRINPYSGGTNYAQKFQGRVTMTRDTSISTAYMELSRLRSDDTAVYYCASGFEPHDYGDPNLPPWGQGTLVTVSS
VL: not shown
B10: mAb14255 (antibody)
heavy: not shown
light: QSALTQPASVSGSPGQSITISCTGTSSDVGSYNLVSWYQQHPGKAPKLMIYEDSKRPSGVANPFSGSKSGNTASLTISGLQAEDEADYYCSSYAGSSTWVFGGGTKLTVLGQPKAAPSVTLFPPSSEELQANKATLVCLISDFYPGAVTVAWKADSSPVKAGVETTTPSKQSNNKYAASSYLSLTPEQWKSHRSYSCQVTHEGSTVEKTVAPTECS
B11: mAb14257 (antibody, V domains shown)
VH: EVQLVESGGGLVQPGGSLRLSCAASGFTVSRSYMNWVRQAPGKGLEWVSVVFTGGTTKHTDSVKGRFTISRDNSMNTLYLQMNSLRPEDTAVYYCARVAIVETTGAFDIWGQGTMVTVSS
VL: QSVLTQPPSVSGAPGQRVTISCTGTSSNIGADFDVHWYQQFPGTAPKLLIYGHTNRPSGIPDRFSGSKSGTSASLAITGLQAEDEADYYCQSYDSSLSGSVVFGGGTKLTVLG
B12: mAb14258 (antibody, V domains shown)
VH: QLQLQESGPGLVKPSETLSLICTGSGDSISSSHYYWGWIRQPPGKGLEWIGSTYFSGSTYYNPSLKSRVSISVDTSKNQVSLKLISVTAADTAVYYCAREMGATLGDYWGPGTLVTVSS
VL: QSVLTQPPSASGTPGQRVTISCSGSSSNIGNNYVYWYQQFPGTTPRLLIYRNNERPSGVPDRFSGSKSGTSASLVISGLRSEDEADYYCAAWDDSLSAHYVFGTGTKVTVLG
B13: mAb14259 (antibody, V domains shown)
VH: EVQLVESGGGLVQPGGSLRLSCAASGFPFSTYEMNWVRQAPGKGLEWVSYISSSGNTIYYADSVKGRFTISRDNAKNSLYLQMNTLRAEDTAVYYCARDAVRDHDILTDPATFDPWGQGTLVTVSS
VL: DIVMTQSPLSLPVTPGEPASISCRSSQTLLHSNGYNYLDWYLQKPGQSPQLLIHLGSNRASGVPDRFSGSGSVTDFTLKISRVEAEDVGVYYCMQALQTPYTFGQGTKLEIKR
B14: mAb14260 (antibody, V domains shown)
VH: EVQLVESGGGLVQPGGSLRLSCAASGFTFSIYEMNWVRQAPGKGLEWVSYITSSGFTIYYADSVKGRFTISRDNAKNSLYLQMHSLRAEDTAVYYCATSSSSGYYFDYWGQGTLVTVSS
VL: not shown
B15: mAb14280 (antibody, V domains shown)
VH: QVQLVQSGAEVKKPGASVRVSCKASGYTFTGNYIHWVRQAPGQGLEWMAWINPNSGGKNYAQKFQGRVTLTRDTSVNTAYMELSRLRSDDTAMYYCARDVNYNILTGPGGLWGQGTLVTVSS
VL: QSALTQPPSASGSPGQSVTISCTGTSSDVGGYNFVSWYQQHPGKAPKLMIYEVSKRPSGVPDRFSGSKSGNTASLTVSGLQAEDEADYYCSSYAGSNNFVFGTGTKVTVLG
B16: mAb14281 (antibody, V domains shown)
VH: QVQLVQSGADVKKPGASVKVSCKTSGYIFTGYYIHWVRQAPGQGLEWMGWINPNSGGTNSAQKFQGRVTMTRDTSISTVYMELSRLRSDDTAVYYCAKSNSFSVLDYNFDYWGQGTLVTVSS
VL: SSELTQDPAVSVALGQTVRITCQGDSLRSYYASWYQQKPGQAPVLVIYDKNNRPSGIPDRFSGSSSGNTASLTITGAQAEDEADYYCNSRDSSRNHLVVFGGGTKLTVLG
B17: mAb14282 (antibody, V domains shown)
VH: QVQLVQSGAEVKKPGASVKVSCKASGYIFTDHYMHWVRQAPGQGLEWMGWINPNSGATNYAQNFQGRVTMTRDTSIITVYMELSRLRSDDTAVYYCARDSSPYMIRYTMDVWGQGTTITVSS
VL: QSALTQPASVSGSPGQSITISCTGTSSDVGSYNLVSWYQQHPGKAPKLMIYELTKRPSGVSNRFSGSKSGNTASLTISGLQAEDEADYYCSSYRGSVTDVVFGGGTKLTVLG
B18: mAb14283 (antibody, V domains shown)
VH: QVQLQESGPGLVKPSGTLSLTCDVSGGSISSNNWWSWVRQRPGKGLQWIGEIYHNENTNYNPSLKSRVIMSIDKSKNQFSLKLTSVTAADTAVYYCARGDVLDWFDPWGQGTLVTVSS
VL: QSALTQPASVSGSPGQSTTISCTGTSSDVGGYNYVSWYQQYPGKAPKLMIYDVTNRPSGVSHRFSGSKSGNTASLTISGLQAEDEADYYCSSYTSSSTVIFGGGTKLTVLG
B19: mAb14284 (antibody, V domains shown)
VH: QITLKESGPTLVKPTQTLTLTCTFSGFSFSTSGVGVGWIRQPPGKTLEWLALIYWDDDKRYSPSLKSRLTITKDTSKNQVVLTMTNMDPVDTATYFCAHHGIPTIFGYWGQGALVTVSS
VL: QSALTQPASVSGSPGQSITISCTGTSSDLGVFNYVSWYQQHPGKAPKLMIYEVTNRPSGVSNRFSGSKSGNTASLTISGLQAEDEADYYCSSYTTSSTVFGGGTKLTVLG
B20: mAb14285 (antibody, V domains shown)
VH: QVQLVQSGAEVKKPGASVKVSCKASGYTFTGYFIHWVRQAPGQGLEWMGWISPISGGTNYAQKFQGRVTVTRDTSITTAYMELSRLTSDDTAVYHCAREGGTWKGDFDYWGQGTLVTVSS
VL: QSALTQPASVSGSPGQSITISCTGTSSDVESYNLVSWYQQHPGKAPKLMIYEGSKRPSGVSNRFSGSKSGNTASLTISGLQAEDEADYYCSSYAGSSTWVFGGGTKLTVLG
B21: mAb14287 (antibody, V domains shown)
VH: QVQLVQSGAEVKKPGSSVKVSCKASGGTFSNNAISWVRQAPGQGLEWMGKIIPILGIGGDAQKFQGRFTITADKSTSTAYMELSSLRSEDTAVYYCANSGDSRPHAFDIWGQGTMVTVSS
VL: QSALTQPASVSGSPGQSITISCTGTSSDVGSYNLVSWYQQHPGKAPKLMIYEVSKRPSGVSNRFSGSKSGNTASLTISGLQAEDEADYYCSSYAGSRREVFGGGTKLTVLG
B22: mAb14288 (antibody, V domains shown)
VH: EVQLVESGGGLVQPGGSLRLSCAASGFTLSSYDMHWVRQVIGKGLEWVSTIGTSGDTYYPGSVKGRFTISRENAKNSLYLQMNSLRAGDTAVYYCARGGVPTTIWSGPYYYYMDVWGKGTTVTVSS
VL: QSVLTQPPSVSAAPGQKVTISCSGSSSNIGNNYVSWYQQLPGTAPKLLIYENNKRPSGIPDRFSGSKSGTSATLGITGLQTGDEADYYCGTWDSSLSAGQGVFGGGTKLTVLG
B23: mAb14289 (antibody, V domains shown)
VH: QVQLVQSGPEVKKPGASVKVSCKASGYTFTSYAISWVRQAPGQGLEWMGWISAYNGNTNYAQKLQGRVTMTTDTFTSTAYMELRSLRSDDTAVYYCAVPADHITFDYWGQGTLVTVSS
VL: EIVLTQSPGTLSLSPGERATLSCRASQSVSSYLAWYQQKPGQAPRLLIHGASSRATGIPDRFSGSGSGTDFTLTISRLEPEDFAVYYCQQYGSSFLTFGGGTKVEIKR

target: SARS-CoV-2 spike protein, wild-type (Wuhan-Hu-1) or D614G control (SARS-CoV-2); assay: cell-based or functional assay

Row | Binder | IC50 (pseudoparticle neutralization)
1 | B1 | 62.1 pM
2 | B2 | 24.1 pM
3 | B3 | 1020 pM
4 | B4 | 63.5 pM
5 | B5 | 54.2 pM
6 | B6 | 33.8 pM
7 | B7 | 58 pM
8 | B8 | 62 pM
9 | B9 | 162 pM
10 | B10 | 34.3 pM
11 | B11 | 29.1 pM
12 | B12 | 55.7 pM
13 | B13 | 37.2 pM
14 | B14 | 92.8 pM
15 | B15 | 28.6 pM
16 | B16 | 33.5 pM
17 | B17 | 32.7 pM
18 | B18 | 54.9 pM
19 | B19 | 31.4 pM
20 | B20 | 32.5 pM
21 | B21 | 199 pM
22 | B22 | 1380 pM
23 | B23 | 40.2 pM
